Measurements as given in patent publication US20100256040A1 (priority 2001, published 2010).
Where a SMILES comes first, the peptide text is derived from it.

System: HIV-1
Settings: TC50 / IC50
Experimental: Fresh human blood was obtained commercially from Interstate Blood Bank, Inc. (Memphis, Tenn.). The lymphotropic clinical isolate HIV-1ROJO was obtained from a pediatric patient attending the AIDS Clinic at the University of Alabama at Birmingham. The laboratory-adapted HIV-1IIIB strain was propagated and tittered in fresh human PBMCs; pre-titered aliquots of HIV-1ROJO and Hiv-1IIIB were removed from the freezer (−80° C.) and thawed rapidly to room temperature in a biological safety cabinet immediately before use. Phytohemagglutinin (PHA-P) was obtained from Sigma (St. Louis, Mo.) and recombinant IL-2 was obtained from Amgen (San Francisco, Calif.).
Fresh human PBMCs were isolated from screened donors, seronegative for HIV and HBV. Leukophoresed blood was diluted 1:1 with Dulbecco's phosphate buffered saline (PBS), layered over 14 mL of Ficoll-Hypaque density gradient in a 50 mL centrifuge tube and then centrifuged for 30 minutes at 600×g. Banded PBMCs were aspirated from the resulting interface and subsequently washed 2× with PBS by low speed centrifugation. […]
A microtiter based reverse transcriptase (RT) reaction was utilized. […] Opti-Fluor-O (Packard) was added to each sample and incorporated radioactivity was quantified utilizing a Wallac 1450 MicroBeta Plus liquid scintillation counter.

SMILES	Therapeutic Index
Cc1cn([C@H]2C[C@H](N=[N+]=[N-])[C@@H](CO)O2)c(=O)[nH]c1=O [AZT, 3′-Azido-3′-deoxythymidine, reference compound]	>125.00
C[C@H](NC(=O)[C@@H](NC(=O)[C@@H]1CCCN1C(=O)[C@H](CCC(=O)O)NC(=O)[C@@H]1CCCN1C(=O)[C@H](CCCNC(=N)N)NC(=O)[C@H](CCCNC(=N)N)NC(=O)[C@H](CCCNC(=N)N)NC(=O)[C@H](CCCNC(=N)N)NC(=O)[C@H](CCCNC(=N)N)NC(=O)[C@H](CCCNC(=N)N)NC(=O)[C@H](CCCNC(=N)N)NC(=O)[C@H](CCCNC(=N)N)NC(=O)[C@@H](N)CCCNC(=N)N)[C@@H](C)O)C(=O)N1CCC[C@H]1C(=O)N[C@@H](CCC(=O)O)C(=O)N[C@@H](CCC(=O)O)C(=O)O [MPI-PEP1, NH2-(R)9-PEPTAPEE-COOH] (H-RRRRRRRRRPEPTAPEE-OH)	9.2
